Measured values from several laboratories, pooled; numbers as filed in NIAID ChemDB.

All rows: tests in culture; organism: Mycobacterium tuberculosis

Percent inhibition refers to the dose given; in toxicity tests it is the harm to the cells. Neighbouring rows are from separate reports. MIC bound: limit read from a one-dose screen. An empty or dashed field is not shown. MIC50, MIC90 and the like: level of inhibition, or share of isolates inhibited. ECn: concentration that inhibits the pathogen or its effect by n%.

SMILES,conditions,tested at,strain or isolate,changes,method,endpoint,value
CCCCCCCN1C(=O)c2ccnnc2Oc2ccc3ccccc3c21,,,H37Rv,,BACTEC,EC50,>12.5 µg/mL
CC1(C)C2CC3OB(C[C@@H](Cc4ccccc4)NC(=O)[C@@H](N)CCCN=C(N)N)O[C@]3(C)C1C2,,,H37Rv,,,MIC,≤50 µg/mL
COC[C@]12CN(C=O)[C@@H]3C4[C@H](OC)[C@H]1C3([C@@H](OC)C[C@H]2O)[C@@H]1C[C@@]2(O)C(OC(=O)c3ccccc3)[C@@H]1[C@]4(OC(C)=O)C(O)[C@@H]2OC,,12.5 µg/mL,H37Rv,,BACTEC,inhibition,-2%
Cc1cc(O)c2c(c1)C(=O)C(c1c(C)cc3c(c1O)C(=O)C=CC3=O)=CC2=O,,,Streptomycin isoniazid ethambutol-resistant,,,MIC,0.1 µg/mL
O=C(Oc1ccc(Cl)cc1C(=O)Nc1ccc(C(F)(F)F)cc1)c1ccccc1,21 d,,Praha 1,,broth dilution,MIC,0.5 µM
COc1ccc(/C=C/c2cc(O)cc(O[C@@H]3O[C@H](CO)[C@@H](O)[C@H](O)[C@H]3O)c2)cc1O,,,H37Rv,,BACTEC,MIC bound,>12.8 µg/mL
CCCCCCCCCCCCCCC(Oc1ccccc1Cl)C(=O)O,,,H37Rv,,,MIC,1 µg/mL
Cc1cc(C)c2c(OCCCN3CCN(c4cccc(Cl)c4)CC3)nsc2n1,,,H37Rv,,BACTEC,EC50,>12.5 µg/mL
CN1C(=O)C2(Nc3ccccc3N2)c2ccccc21,,12.8 µg/mL,H37Rv,,BACTEC,inhibition,21%
Cc1ccncc1-c1noc(C2=CC3(CCN(CC4CCCO4)CC3)c3ccccc32)n1,,,H37Rv,,resazurin,MIC,6.3 µM
CC1(C)C2CC3OB(C[C@@H](Cc4ccccc4)NC(=O)[C@H](N)CCCCN)O[C@]3(C)C1C2,,,H37Rv,,agar,MIC,≤500 µg/mL
CCOC(=O)c1c(C(CC)C(=O)OC(C)C)cc2n(c1=O)Cc1c-2nc2ccccc2c1Cl,,,H37Rv,,resazurin,MIC bound,>6.25 µg/mL
CO[C@@H]1[C@H](O)[C@@H](C)O[C@@H](OC[C@H](C)[C@H]2OC(=O)[C@H](C)[C@@H](O[C@H]3C[C@H](C)N(C)C[C@H](C)O3)[C@H](C)[C@@H](O[C@@H]3O[C@H](C)C/C(=C\C#N)[C@H]3O)[C@@H](C)C[C@](C)(OC(=O)N3C[C@@H](C)O[C@@H](C)C3)C(=O)[C@H](C)[C@H](OC(=O)CC(C)C)[C@H]2C)[C@@H]1OC,,,H37Rv,,resazurin,MIC,0.452 µM
O=C(O)COc1ccc(C(=O)/C(SS/C(C(=O)c2ccc(OCC(=O)O)c(Cl)c2Cl)=C2\C=C(c3ccc(F)cc3)SS2)=C2/C=C(c3ccc(F)cc3)SS2)c(Cl)c1Cl,,12.5 µg/mL,H37Rv,,BACTEC,inhibition,0%
COc1ccc(-c2noc(C3=CC4(CCN(CC(N)=O)CC4)c4ccccc43)n2)cc1,,,H37Rv,,resazurin,MIC,50 µM
Fc1cccc(Cl)c1CSc1ncn[nH]1,,,My 331/88,,,MIC,1000 µM
CC1CN(c2c(F)cc3c(=O)c(C(=O)O)cn(C4CC4)c3c2F)CC(C)N1,,,Erdman,,,MIC,0.25 µg/mL
Cc1cc(C)c2c(n1)S(=O)(=O)N(C/C=C/CN1CCN(c3ncccn3)CC1)C2=O,,,H37Rv,,BACTEC,EC50,>12.5 µg/mL
O=[N+]([O-])c1cccc(F)c1CSc1ncn[nH]1,,,My 331/88,,,MIC,>1000 µM
COc1ccc2[nH]c3c(c2c1)CCNC3CC(C)CCC=C(C)C,,6.25 µg/mL,H37Rv,,resazurin,inhibition,59%
O=C(Oc1ccc(Br)cc1C(=O)Nc1ccc(C(F)(F)F)cc1)c1ccccc1,21 d,,Praha 131,,broth dilution,MIC,1 µM
Cc1c2ccncc2c(CO[C@@H]2O[C@H](CO)C(O)C2O)c2c3ccccc3n(C)c12,,,H37Rv,,resazurin,MIC bound,>6.25 µg/mL
C[C@H]1COc2c(N3CCN(C)CC3)c(F)cc3c(=O)c(C(=O)O)cn1c23,,,Strain 24,,,MIC,0.125 µg/mL
Cc1cccc(OC(=O)c2ccc(N)cc2O)c1,,,Frankfurt,,,MIC,0.05 µg/mL
CO[C@H]1/C=C/O[C@@]2(C)Oc3c(C)c(O)c4c(O)c(c(/C=N/N5CCN(C)CC5)c(O)c4c3C2=O)NC(=O)/C(C)=C\C=C\[C@H](C)[C@H](O)[C@@H](C)[C@@H](O)[C@@H](C)[C@H](OC(C)=O)[C@@H]1C,,,13267,,,MIC,0.02 µg/mL
Nc1ccc(C(=O)OCc2ccccc2)c(O)c1,,,H37Rv,,,MIC,0.75 µg/mL
Cn1cc(NC(=O)c2cc(NC(=O)CCCCCCCCCC(=O)Nc3cc(C(=O)Nc4cc(C(=O)NCCC(N)=[NH2+])n(C)c4)n(C)c3)cn2C)cc1C(=O)NCCC(N)=[NH2+],,12.5 µg/mL,H37Rv,,BACTEC,inhibition,98%
CN[C@@H]1[C@H](O[C@H]2[C@H](O[C@H]3[C@H](O)[C@@H](O)[C@H](N=C(N)N)[C@@H](O)[C@@H]3N=C(N)N)O[C@@H](C)[C@]2(O)C=O)O[C@@H](CO)[C@H](O)[C@H]1O,,,TB375,Spiroindene-resistant,turbidity,MIC,1 µM
COc1ccc2cc1-c1cc(ccc1O)C[C@@H]1NCCc3cc4c(cc31)Oc1c(c(OC)cc3c1[C@H](C2)N(C)CC3)O4,,,H37Rv-PAS-R ATCC 35821,,resazurin,MIC,1.5 µg/mL
C[C@@H](B1OC2CC3CC(C3(C)C)[C@@]2(C)O1)[C@@H](Cc1ccccc1)NC(=O)[C@@H]1CCCN1,,,H37Rv,,,MIC,≤500 µg/mL
COc1ccc2cc1-c1cc(ccc1O)C[C@H]1c3cc4c(cc3CCN1C)Oc1c(OC)cc3c(c1O4)[C@H](C2)N(C)CC3,,,H37Rv,,resazurin,MIC,6.2 µg/mL
Cc1ccc2c(c1)Oc1nnc(Cl)cc1C(=O)N2CCCC1CCCCC1,,12.5 µg/mL,H37Rv,,BACTEC,inhibition,54%
Cc1cc(C)c2c(=O)n(CC(O)CN3CCN(c4ccccc4)CC3)sc2n1,,12.5 µg/mL,H37Rv,,BACTEC,inhibition,5%
CNC(=O)CN1CCC2(C=C(c3nc(-c4ccc(OC)cc4)no3)c3ccccc32)CC1,,,H37Rv,,resazurin,MIC,12 µM
O=C(Nc1cccc(F)c1)c1cc(Cl)ccc1O,21 d,,331/88 (H37Rv),,broth dilution,MIC,8 µM
COc1cc(C(=O)n2c(=O)oc(=O)c3cc([N+](=O)[O-])ccc32)cc(OC)c1OC,,,H37Rv,,resazurin,MIC bound,>6.25 µg/mL
COc1ccc(-c2noc(C3=CC4(CCN(CC5CCCO5)CC4)c4ccccc43)n2)cc1,,,ss18b,,resazurin,EC80,>200 µM
Cn1cnnc1SCc1ccc([N+](=O)[O-])cc1[N+](=O)[O-],,,My 331/88,,,MIC,>1000 µM
Cc1cc(C)c2c(=O)n(CCCN3CCN(c4cccc(Cl)c4)CC3)sc2n1,,,H37Rv,,BACTEC,EC50,<12.5 µg/mL
C[C@@H](B1OC2CC3CC(C3(C)C)[C@@]2(C)O1)[C@@H](Cc1ccccc1)NC(=O)[C@H](Cc1ccccc1)NC(=O)[C@@H](N)CCCCN,,,H37Rv,,,MIC,≤50 µg/mL
O=c1n(C2CCCCC2)c(=C(Cl)Cl)c(=C(Cl)Cl)n1C1CCCCC1,,,H37Rv,,BACTEC,MIC bound,>12.5 µg/mL
CO[C@H]1/C=C/O[C@@]2(C)Oc3c(C)c(O)c4c(O)c(c5c(c4c3C2=O)NC2(CCN(CC(C)C)CC2)N=5)=NC(=O)/C(C)=C\C=C\[C@H](C)[C@H](O)[C@@H](C)[C@@H](O)[C@@H](C)[C@H](OC(C)=O)[C@@H]1C,,,Erdman,,,MIC,≤0.125 µg/mL
C1=C(c2nc(-c3cccnc3)no2)c2ccccc2C12CCN(CC1CCCO1)CC2,,,TB333,Spiroindene-resistant,turbidity,MIC,>25 µM
CCCCN(CCCC)CCCn1cnc2ncccc2c1=O,,,H37Rv,,resazurin,MIC bound,>6.25 µg/mL
COc1ccccc1OC(=O)c1ccc(N)cc1O,,,H37Rv (streptomycin-resistant),,,MIC,0.01 µg/mL
CO[C@@H]1[C@H](O)[C@@H](C)O[C@@H](OC[C@H](C)[C@H]2OC(=O)[C@H](C)[C@@H](O[C@H]3C[C@@H](C)N(C)C[C@H](C)O3)[C@H](C)[C@@H](O[C@@H]3O[C@H](C)C/C(=C\C#N)[C@H]3O)[C@@H](C)C[C@](C)(OC(=O)N3CCO[C@@H](C)C3)C(=O)[C@H](C)[C@H](OC(=O)CC(C)C)[C@H]2C)[C@@H]1OC,,,H37Rv,,resazurin,MIC,0.601 µM
CCS(=O)(=O)c1ccc(C(=O)NN)cc1,,,H37Rv,,BACTEC,MIC bound,>12.5 µg/mL
Oc1ccccc1C=Nc1ccc(-c2nnc(Nc3ccccc3)s2)cc1,,6.25 µg/mL,H37Rv,,,inhibition,51%
O=[N+]([O-])c1cc(C(F)(F)F)cc([N+](=O)[O-])c1N1CCCC(n2cccc2)C1,,12.5 µg/mL,H37Rv,,BACTEC,inhibition,7%
CCCCCCCCCCCCCCC(Oc1ccc(Cl)cc1Cl)C(=O)O,,,H37Rv,,,MIC,100 µg/mL
CNC(=S)Nc1ccc(C)c(Cl)c1,,,H37Rv,,BACTEC,MIC bound,>12.5 µg/mL
CNc1nnc(-c2ccc(N=Cc3ccccc3O)cc2)s1,,6.25 µg/mL,H37Rv,,,inhibition,13%
COc1ccc(CSc2ncn[nH]2)cc1,,,My 331/88,,,MIC,1000 µM
COc1cccc(-c2cc(=O)c3cc(N(C)C)ccc3[nH]2)c1,,,H37Rv,,BACTEC,MIC bound,>12.5 µg/mL
CC1CN(c2c(F)cc3c(=O)c(C(=O)O)cn(C4CC4)c3c2F)CCN1,,,CSU25,,,MIC,0.25 µg/mL
O=C(Oc1ccc(Cl)cc1C(=O)Nc1ccc(Cl)c(Cl)c1)c1ccccc1,14 d,,53/2009,,broth dilution,MIC,0.5 µM
CCNc1nnc(-c2ccc(N=Cc3ccc([N+](=O)[O-])o3)cc2)s1,,6.25 µg/mL,H37Rv,,,inhibition,0%
CO[C@@H]1[C@H](O)[C@@H](C)O[C@@H](OC[C@H](C)[C@H]2OC(=O)[C@H](C)[C@@H](O[C@H]3C[C@@H](C)N(C)C[C@H](C)O3)[C@H](C)[C@@H](O[C@@H]3O[C@H](C)C/C(=C\C#N)[C@H]3O)[C@@H](C)C[C@](C)(OC(=O)N3CCO[C@H](C)C3)C(=O)[C@H](C)[C@H](OC(=O)CC(C)C)[C@H]2C)[C@@H]1OC,,,H37Rv,,resazurin,MIC,0.621 µM
CCCCCCCCCCC(C(=O)O)S(=O)(=O)c1ccccc1,,,H37Rv,,,MIC,100 µg/mL
Cc1c(OCC(F)(F)F)ccnc1CSc1nc2ccccc2[nH]1,7 d,,H37Rv,,turbidity,MIC90,1.02 µM
CNc1nnc(-c2ccc(N=Cc3ccc([N+](=O)[O-])o3)cc2)s1,,6.25 µg/mL,H37Rv,,,inhibition,0%
C=C(C)[C@@H]1CC[C@]2(CO)CC[C@]3(C)[C@H](CC[C@@H]4[C@@]5(C)CC[C@H](O)C(C)(C)[C@@H]5CC[C@]43C)[C@@H]12,,,H37Rv,,BACTEC,MIC bound,>128 µg/mL
NC(=O)c1cnccn1,7 d,800 µg/mL,Erdman,,,inhibition,96.5%
CCCCCCCN1C(=O)c2ccnnc2Oc2cc(C)ccc21,,12.5 µg/mL,H37Rv,,BACTEC,inhibition,1%
OC[C@H]1O[C@@H](n2nnc3cc(Cl)c(Cl)cc32)[C@H](O)[C@@H]1O,,12.5 µg/mL,H37Rv,,BACTEC,inhibition,15%
COc1ccccc1N1CCN(Cn2sc3nc(C)cc(C)c3c2=O)CC1,,12.5 µg/mL,H37Rv,,BACTEC,inhibition,100%
CCCCCCCCCCCCCCC(Oc1ccc(OC)cc1)C(=O)O,,,H37Rv,,,MIC,0.1 µg/mL
O=C1c2cc(Cl)nnc2Oc2ccccc2N1Cc1ccccc1,,12.5 µg/mL,H37Rv,,BACTEC,inhibition,35%
CC1=NN(C(=O)c2ccncc2)C(=O)C1N=Nc1c(C)n(C)n(-c2ccccc2)c1=O,,12.8 µg/mL,H37Rv,,BACTEC,inhibition,23%
CCCCCCCCCCC(Oc1ccccc1)C(=O)O,,,H37Rv,,,MIC,400 µg/mL
CN1CN(C)C(=O)S(=O)(=O)C1,,,H37Rv,,resazurin,MIC bound,>6.25 µg/mL
Oc1cccc(C=Nc2ccc(-c3nnc(NCc4ccccc4)s3)cc2)c1,,6.25 µg/mL,H37Rv,,,inhibition,6%
CC1=NN(C(=O)c2ccccn2)C(=O)C1N=Nc1ccc(S(=O)(=O)Nc2ncccn2)cc1,,,H37Rv,,BACTEC,MIC,≥12.8 µg/mL
O=C(Oc1cc(Cl)ccc1C(=O)Nc1ccc(Cl)cc1)c1ccccc1,14 d,,331/88 (H37Rv),,broth dilution,MIC,2 µM